# Reference: patent US10086010B2 (STC.UNM, priority 2014, dated 2018)
# Tested on: HT-29 cells
# Experiment: WST-1 cell growth/viability assay, HT-29
# Type: cell-based, human
# Method: Indicated concentrations of drugs were added to wells one day after seeding. […] Cell proliferation was quantitated by measuring 450 nm absorbance and 600 nm as a background. All assays were performed in triplicate. […] The minimal combination index […] for each cell line was obtained from the isobologram parameters.
structure (smiles),measurement,value
"O=c1[nH]c(=O)n([C@H]2C[C@H](O)[C@@H](CO)O2)cc1F [5-FUdR, 5-fluoro-2′-deoxyuridine]",concentration required to synergistically inhibit cell proliferation and viability with hmUdR,5 nM
